Compound potency records, mixed from different reports. Data source: NIAID ChemDB in PubChem.

Common to all: whole-cell or culture tests; species: HIV-1; cell line: PBMC; measure: EC50

ECn is the concentration giving n% inhibition of infection, replication or growth. Conditions beyond the fields shown may differ between rows. Blank or dashed fields: not listed here.

| structure | strain | changes | read by | setting | result |
|---|---|---|---|---|---|
| Nc1ccn([C@H]2CC[C@@H](CO)O2)c(=O)n1 | BCF08 | RT-A98G Y181C |  |  | 0.06 µM |
| Cc1cn([C@H]2C[C@H](N=[N+]=[N-])[C@@H](CO)O2)c(=O)[nH]c1=O | H9/HTLV-IIIB |  | p24 |  | 0.01 µM |
| Cc1ccc(-c2ccc3c(c2)C=C(C(=O)Nc2ccc(C[N+](C)(C)C4CCOCC4)cc2)CCC3)cc1 | JR-FL R5 |  | antigen |  | 0.003 µg/mL |
| S=C(NCCC1=CCCCC1)Nc1ccc(Cl)cn1 | A17 | RT-K103N Y181C |  |  | 30 µM |
| O=c1[nH]cnc2c1ncn2[C@H]1CC[C@@H](CO)O1 | Recombinant | RT-V75I | p24 |  | 0.4 µM |
| O=c1[nH]cnc2c1ncn2[C@H]1CC[C@@H](CO)O1 | BCF06 | RT-A98G K103R |  |  | 0.9 µM |
| CC(C)c1nc(CN(C)C(=O)N[C@H](C(=O)N[C@@H](Cc2ccccc2)C[C@H](O)[C@H](Cc2ccccc2)NC(=O)OCc2cncs2)C(C)C)cs1 | ERS104PRE(PR-L63P) Clinical isolate | PR-L63P | p24 |  | 0.044 µM |
| S=C(NCCC1=CCCCC1)Nc1ccc(Br)cn1 | A17 | RT-K103N Y181C |  |  | 18.7 µM |
| COC(=O)[C@H](C)NP(=O)(OC[C@@H]1C=C[C@H](n2cc(C)c(=O)[nH]c2=O)O1)Oc1ccc(Br)cc1 | G190-6 Clinical isolate ZDV-resistant | RT-M41L D67N K70R T215Y K219Q | p24 |  | 0.0028 µM |
| Nc1ccn([C@@H]2CS[C@H](CO)O2)c(=O)n1 | 1617-1 NRTI resistant recombinant | RT-T69K K70G V75I F77L F116Y Q151M M184V | p24 |  | >10 µM |
| CCc1c(C(=O)c2cc(C)cc(C)c2)n(CC2CC=CC2)c(=O)[nH]c1=O | CLADE C |  | cytopathic effect / XTT | clinical isolate | 0.002 µM |
| CCC[C@@H](c1ccc(C(F)(F)F)cc1)N1CCN(C2(C)CCN(C(=O)c3c(C)ncnc3C)CC2)C[C@@H]1C | JV1083 Clinical isolates |  |  |  | <0.00027 µM |
| O=c1[nH]cnc2c1ncn2[C@H]1CC[C@@H](CO)O1 | 7253 CLADE A CLADE A |  | p24 |  | 1.01 µM |
| CCC(=O)c1ccc(F)c([C@@H]2C[C@@H]2NC(=O)Nc2ccc(C#N)cn2)c1O | 1617-1 |  | absorbance |  | 0.0039 µM |
| COC(=O)[C@H](C)NP(=O)(OC[C@@H]1C=C[C@H](n2cc(C)c(=O)[nH]c2=O)O1)Oc1ccc(Br)cc1 | 56252-1 NRTI resistant recombinant | RT-T69K K70G V75I F77L F116Y Q151M M184V | p24 |  | 0.025 µM |
| COc1ccc(S(=O)(=O)N(CC(C)C)C[C@@H](O)[C@H](Cc2ccccc2)NC(=O)O[C@H]2CO[C@H]3OCC[C@H]32)cc1 | Clinical isolate | PR-L10I K43T M46L I54L L63P A71T V82A L90M Q92K | p24 |  | 0.0024 µM |
| Cc1cn([C@H]2C[C@H](N=[N+]=[N-])[C@@H](CO)O2)c(=O)[nH]c1=O | CLADE E |  | cytopathic effect / XTT |  | 0.003 µM |
| c1cc(CN2CCCNCCNCCCNCC2)ccc1CN1CCCNCCNCCCNCC1 | SW12 CLADE C X4 |  | p24 |  | <0.5 µM |
| CC(C)=CCN1Cc2cc(Cl)cc3[nH]c(=S)n(c23)C[C@@H]1C | RUD (RT-A98G) | RT-A98G |  |  | 1.1 µM |
| Cc1c(O)cccc1C(=O)N[C@@H](CSc1ccccc1)[C@H](O)CN1C[C@H]2CCCC[C@H]2C[C@H]1C(=O)NC(C)(C)C | ERS104PRE(PR-L63P) Clinical isolate | PR-L63P | p24 |  | 0.023 µM |
| CC(=O)N1CCC(C(=O)N(CCCN2CCC(Cc3ccc(C(N)=O)cc3)CC2)c2ccc(C)c(Cl)c2)CC1 | HKW R5 clinical isolate |  | p24 |  | 0.0017 µM |
| S=C(NCCC1=CCCCC1)Nc1nccs1 | IIIB |  |  |  | 0.03 µM |
| S=C(NCCc1cccs1)Nc1ccc(Br)cn1 | G704-2 Clinical isolate NRTI-resistant | RT-M41L D67N K70R L210W T215Y | p24 |  | 0.017 µM |
| CCC[C@@]1(CCc2ccccc2)CC(O)=C([C@H](CC)c2cccc(NS(=O)(=O)c3ccc(C(F)(F)F)cn3)c2)C(=O)O1 | Isolate N. Amer 2 |  | p24 |  | <0.17 µM |
| CC(C)Nc1cccnc1N1CCN(C(=O)c2cc3cc(NS(C)(=O)=O)ccc3[nH]2)CC1 | RT-MDR(RT-V106A) | RT-V106A |  |  | 0.4 µM |
| Cc1cccc(C)c1OCC(=O)N[C@@H](Cc1ccccc1)[C@@H](O)C[C@H](Cc1ccccc1)NC(=O)[C@H](C(C)C)N1CCCNC1=O | BaL |  | p24 / luminescence |  | 0.017 µM |
| Cc1cc(C)c(Nc2ccnc(Nc3ccc(C#N)cc3)n2)c(C)c1 | NL4-3 |  | absorbance |  | 0.0005 µM |
| Nc1ccn([C@@H]2CS[C@H](CO)O2)c(=O)n1 | Recombinant | RT-V75I F77L F116Y Q151M | p24 |  | 0.1 µM |
| CCO/N=C(\c1ccc(Br)cc1)C1CCN(C2(C)CCN(C(=O)c3c(C)cc[n+]([O-])c3C)CC2)CC1 | ASJM 108 R5 CLADE B |  | p24 |  | 0.0011 µM |
| Cc1cn([C@H]2C[C@H](N=[N+]=[N-])[C@@H](CO)O2)c(=O)[nH]c1=O | 472 clinical isolates AZT-resistant |  | p24 |  | <1.4 µM |
| CC(C)(C)NC(=O)[C@@H]1C[C@@H]2CCCC[C@@H]2CN1C[C@@H](O)[C@H](Cc1ccccc1)NC(=O)[C@H](CC(N)=O)NC(=O)c1ccc2ccccc2n1 | Clinical isolate | PR-L10I K43T M46L I54L L63P A71T V82A L90M Q92K | p24 |  | 0.31 µM |
| Cc1cn([C@H]2C[C@H](N=[N+]=[N-])[C@@H](CO)O2)c(=O)[nH]c1=O | C467-4 Clinical isolate ZDV-resistant | RT-K20R D67N K70R Y188L T215F K219Q | p24 |  | 3.2 µM |
| O=C1N(Cc2ccc(CO)cc2)[C@H](Cc2ccccc2)[C@H](O)[C@@H](O)[C@@H](Cc2ccccc2)N1Cc1ccc(CO)cc1 | IIIB |  | p24 |  | 0.018 µM |
| Cc1ncnc(C)c1C(=O)N1CCC(C)(N2CCN([C@@H](Cc3ccccc3)c3ccc(C(F)(F)F)cc3)[C@@H](C)C2)CC1 | JV1083 Clinical isolates |  |  |  | <0.00027 µM |
| CN[C@@H]1[C@H](O[C@@H]2OC[C@@H](O)[C@H](O)[C@H]2O)[C@@H](O)[C@H](O[C@H]2c3cc(C)c(C(=O)N[C@H](C)C(=O)O)c(O)c3-c3c(cc4c(c3O)C(=O)c3cc(OC)cc(O)c3C4=O)[C@@H]2O)O[C@@H]1C | BAL R5 |  | p24 |  | 2.2 µg/mL |
| CC(C)CN(C[C@@H](O)[C@H](Cc1cc(F)cc(F)c1)NC(=O)O[C@H]1CCO[C@H]2OCC[C@H]21)S(=O)(=O)c1ccc2nc(NC(C)C)sc2c1 | Clinical isolate | L10I K14R L33I M36I M46I F53I K55R I62V L63P A71V G73S V82A L90M I93L | p24 / luminescence | clinical isolate, multidrug-resistant | 0.0022 µM |
| Cc1cn([C@H]2C[C@H](F)[C@@H](CO)O2)c(=O)[nH]c1=O | 689 |  | ELISA |  | 0.014 µM |

Again, the opening 2 rows:

structure	strain	changes	read by	setting	result
Nc1ccn([C@H]2CC[C@@H](CO)O2)c(=O)n1	BCF08	RT-A98G Y181C			0.06 µM
Cc1cn([C@H]2C[C@H](N=[N+]=[N-])[C@@H](CO)O2)c(=O)[nH]c1=O	H9/HTLV-IIIB		p24		0.01 µM